A mixed list of measured activities; the numbers were collected in NIAID ChemDB.

Common to all: enzyme or target tests; organism: HIV-1; protein: Protease; read by: HPLC; endpoint: IC50

Blank or dashed fields: not listed here. ICn: concentration for n% inhibition. Lines come from different laboratories, so protocols vary.

{"SMILES": "COC(=O)[C@]12CCC(C)(C)CC1C1=CCC3[C@@]4(C)CC/C(=N\\OC(=O)CCCCC(=O)O)C(C)(C)C4CC[C@@]3(C)[C@]1(C)CC2", "value": "4 µM"}
{"SMILES": "CC1(C)CC[C@]2(C(=O)O)CC[C@]3(C)C(=CCC4[C@@]5(C)CC[C@H](OC(=O)C(=O)O)C(C)(C)C5CC[C@]43C)C2C1", "value": "20 µM"}
{"SMILES": "CC(C)C[C@H](NC(=O)[C@@H](NC(=O)CCCCCCCCCCCCCCC(=O)N[C@@H](CC(N)=O)C(=O)N[C@@H](Cc1cccc2ccccc12)C(=O)O)C(C)O)C(=O)N[C@@H](Cc1ccc(-c2ccccc2)cc1)C(N)=O", "value": "0.51 µM"}
{"SMILES": "COC(=O)[C@]12CCC(C)(C)CC1C1=CCC3[C@@]4(C)CC/C(=N\\OC(=O)CCCCC(=O)O)C(C)(C)C4CC[C@@]3(C)[C@]1(C)CC2", "value": "4 µM"}
{"SMILES": "CCCC[C@H](NC(=O)[C@H](C)NC(=O)[C@H](CCC(=O)O)NC[C@H](Cc1ccccc1)NC(=O)[C@H](CC(C)C)NC(=O)[C@@H](NC(=O)[C@@H](N)CCCN=C(N)N)C(C)C)C(N)=O", "changes": "PR-D30N", "value": ">0.075 µM"}
{"SMILES": "O=c1oc(-c2ccc(OCc3ccccn3)cc2)cc(O)c1SCCc1ccccc1", "setting": "pH 4.7", "value": "1.5 µM"}
{"SMILES": "CC1(C)CC[C@]2(C(=O)NCCCCCC(=O)O)CC[C@]3(C)C(=CCC4[C@@]5(C)CC[C@H](OC(=O)CCCCC(=O)O)C(C)(C)C5CC[C@]43C)C2C1", "value": "1.7 µM"}
{"SMILES": "CC(C)[C@H](NC(=O)[C@H](CCCN=C(N)N)NC(=O)N[C@@H](Cc1ccccc1)C(=O)O)C(=O)N[C@@H](C=O)Cc1ccccc1", "value": "18.3 µM"}
{"SMILES": "C=C(C)[C@H]1CC[C@]2(C)[C@H]3CC[C@@H]4[C@@]5(C)C[C@H](OC(C)=O)C[C@@](C)(C(=O)O)[C@@H]5CC[C@@]4(C)[C@]3(C)CC[C@@H]12", "value": "44.5 µM"}
{"SMILES": "CSCC[C@H](NC(=O)CCCCCCCCCCCCCCC(=O)N[C@H](C(=O)N[C@@H](CC(C)C)C(=O)N[C@@H](Cc1ccc(-c2ccccc2)cc1)C(N)=O)C(C)O)C(=O)N[C@@H](Cc1ccccc1)C(=O)O", "value": "0.46 µM"}
{"SMILES": "COC(=O)[C@]12CCC(C)(C)CC1C1=CCC3[C@@]4(C)CC[C@H](NC(=O)CCCCC(=O)NCCCC(=O)O)C(C)(C)C4CC[C@@]3(C)[C@]1(C)CC2", "value": "6 µM"}
{"SMILES": "C=C(C)[C@@H]1CC[C@]2(C(=O)O)CC[C@]3(C)[C@H](CC[C@@H]4[C@@]5(C)CC[C@H](OC(=O)C(=O)O)C(C)(C)C5CC[C@]43C)[C@@H]12", "value": "7 µM"}
{"SMILES": "CC(C)C[C@H](NC(=O)CCCCCCCCCCCCCCC(=O)N[C@@H](CS(C)(=O)=O)C(=O)N[C@@H](Cc1ccccc1)C(=O)O)C(=O)N[C@@H](CC(C)C)C(=O)N[C@@H](Cc1ccccc1)C(N)=O", "value": "0.47 µM"}
{"SMILES": "O=c1c(O)c(-c2ccc(O)cc2)oc2cc(OC3O[C@@H](O)[C@H](O)[C@H](O)[C@H]3O)cc(O)c12", "value": "146.6 µM"}
{"SMILES": "CC(=O)O[C@H]1CC[C@]2(C)[C@H]3CC=C4[C@@H]5CC(C)(C)CC[C@]5(C(=O)O)CC[C@@]4(C)[C@]3(C)CC[C@H]2C1(C)C", "value": "9 µM"}
{"SMILES": "C=CSC(NC(=O)[C@H](Cc1ccccc1)NS(=O)(=O)N1CCOCC1)C(=O)N[C@@H](CC1CCCCC1)[C@@H](O)C[C@H](C(=O)NCCCC)C(C)C", "value": "0.002 µM"}
{"SMILES": "CC(=O)O[C@H]1CC[C@]2(C)[C@H]3CC=C4[C@@H]5CC(C)(C)CC[C@]5(C(=O)O)CC[C@@]4(C)[C@]3(C)CC[C@H]2C1(C)C", "value": "9 µM"}
{"SMILES": "CC(C)C[C@H](NC(=O)[C@@H](NC(=O)CCCCCCCCCCCCCCC(=O)N[C@@H](Cc1ccc(N)cc1)C(=O)N[C@@H](Cc1ccccc1)C(=O)O)C(C)C)C(=O)N[C@@H](Cc1ccccc1)C(N)=O", "value": "0.32 µM"}
{"SMILES": "CC1(C)CC2C3=CCC4[C@@]5(C)CC[C@H](O)C(C)(C)C5CC[C@@]4(C)[C@]3(C)CC[C@@]2(C)[C@H](O)C1", "value": "18.8 µM"}
{"SMILES": "CC(=O)Oc1cc(OC(C)=O)cc(Oc2c(OC(C)=O)cc3c(c2OC(C)=O)Oc2cc(Oc4c(OC(C)=O)cc(OC(C)=O)cc4OC(C)=O)c(OC(C)=O)c(OC(C)=O)c2O3)c1", "value": ">100 µM"}
{"SMILES": "CSCC[C@H](NC(=O)CCCCCCCCCCCCCCC(=O)N[C@@H](CC(C)C)C(=O)N[C@@H](CC(C)C)C(=O)N[C@@H](Cc1ccccc1)C(N)=O)C(=O)N[C@@H](Cc1ccccc1)C(=O)O", "value": "0.65 µM"}
{"SMILES": "Cc1c(O)c(C)c2c(c1O)C(=O)C[C@@H](c1ccccc1)O2", "value": "105.9 µM"}
{"SMILES": "CC1(C)CC[C@]2(C(=O)O)CC[C@]3(C)C(=CC[C@@H]4[C@@]5(C)CC[C@H](OC(=O)CCCCC(=O)O)C(C)(C)[C@@H]5CC[C@]43C)[C@@H]2C1", "value": "3 µM"}
{"SMILES": "CC(C)C[C@H](NC(=O)[C@@H](NC(=O)CCCCCCCCCCCCCCC(=O)N[C@@H](CS(C)(=O)=O)C(=O)N[C@@H](Cc1ccccc1)C(=O)O)C(C)O)C(=O)N[C@@H](Cc1ccccc1)C(N)=O", "value": "2.9 µM"}
{"SMILES": "CC(C)c1ccc(C(C)C)c(Sc2c(O)cc(-c3ccc(OCc4cccnc4)cc3)oc2=O)c1", "setting": "pH 4.7", "value": "0.32 µM"}
{"SMILES": "CC1(C)CC2C3=CCC4[C@@]5(C)CC[C@H](OC(=O)CCCCC(=O)O)C(C)(C)C5CC[C@@]4(C)[C@]3(C)CC[C@@]2(C)[C@H](OC(=O)CCCCC(=O)O)C1", "value": "2.3 µM"}
{"SMILES": "CC(=O)O[C@@H]1[C@@H](O)C(Oc2c(-c3ccc(O)cc3)oc3cc(OC4O[C@@H](O)[C@H](O)[C@H](O)[C@H]4O)cc(O)c3c2=O)OC(O)[C@@H]1OC(C)=O", "value": ">300 µM"}
{"SMILES": "CC1(C)CC[C@]2(C(=O)O)CC[C@]3(C)C(=CCC4[C@@]5(C)CC[C@H](NC(=O)CCCCC(=O)N[C@H]6CC[C@@]7(C)C(CC[C@]8(C)C7CC=C7C9CC(C)(C)CC[C@]9(C(=O)O)CC[C@]78C)C6(C)C)C(C)(C)C5CC[C@]43C)C2C1", "value": "3.3 µM"}
{"SMILES": "CC(C)=CC[C@@H]1C(C)=CC[C@@H](c2ccccc2)[C@@H]1C(=O)c1c(O)cc(O)cc1O", "value": "5.6 µM"}
{"SMILES": "CSCC[C@H](NC(=O)CCCCCCCCCCCCCCC(=O)N[C@@H](Cc1ccc(N)cc1)C(=O)N[C@@H](Cc1ccccc1)C(=O)O)C(=O)N[C@@H](CC(C)C)C(=O)N[C@@H](Cc1ccccc1)C(N)=O", "value": "0.53 µM"}
{"SMILES": "CC(=O)OC1OC(Oc2c(-c3ccc(O)cc3)oc3cc(OC4O[C@@H](O)[C@H](O)[C@H](O)[C@H]4O)cc(O)c3c2=O)[C@H](O)[C@@H](O)[C@H]1OC(C)=O", "value": "100.1 µM"}
{"SMILES": "COC(=O)[C@]12CCC(C)(C)C[C@H]1C1=CC[C@@H]3[C@@]4(C)CC[C@H](O)C(C)(C)[C@@H]4CC[C@@]3(C)[C@]1(C)CC2", "value": "20 µM"}
{"SMILES": "CC(C)c1ccccc1Sc1c(O)cc(-c2ccc(OCCCc3ccccc3)cc2)oc1=O", "setting": "pH 4.7", "value": "3.5 µM"}
{"SMILES": "CC(C)C[C@H](NC(=O)[C@@H](NC(=O)CCCCCCCCCCCCCCC(=O)N[C@@H](CC(N)=O)C(=O)N[C@@H](CCc1ccccc1)C(=O)O)C(C)O)C(=O)N[C@@H](Cc1cc(I)c(Oc2cc(I)c(O)c(I)c2)c(I)c1)C(N)=O", "value": "0.4 µM"}
{"SMILES": "CC(C)c1ccccc1Sc1c(O)cc(-c2cccc(OCc3ccccn3)c2)oc1=O", "setting": "pH 4.7", "value": "0.067 µM"}
{"SMILES": "C=C(C)[C@@H]1CC[C@]2(C(=O)O)CC[C@]3(C)[C@H](CC[C@@H]4[C@@]5(C)CC[C@H](OC(=O)C(=O)O)C(C)(C)C5CC[C@]43C)[C@@H]12", "value": "7 µM"}
{"SMILES": "C=C(C)[C@@H]1CC[C@]2(C(=O)OC)CC[C@]3(C)[C@H](CC[C@@H]4[C@@]5(C)CC[C@H](OC(=O)CCC(=O)OC)C(C)(C)C5CC[C@]43C)[C@@H]12", "value": "40 µM"}
{"SMILES": "CC(C)C[C@H](NC(=O)[C@@H](NC(=O)CCCCCCCCCCCCCCC(=O)N[C@@H](CS(C)(=O)=O)C(=O)N[C@@H](Cc1ccccc1)C(=O)O)C(C)O)C(=O)N[C@H](C(N)=O)C1CCCCC1", "value": "0.58 µM"}
{"SMILES": "COC(=O)[C@]12CCC(C)(C)CC1C1=CCC3[C@@]4(C)CC[C@H](NC(=O)CCCCC(=O)N[C@H]5CC[C@@]6(C)C(CC[C@]7(C)C6CC=C6C8CC(C)(C)CC[C@]8(C(=O)OC)CC[C@]67C)C5(C)C)C(C)(C)C4CC[C@@]3(C)[C@]1(C)CC2", "value": ">20 µM"}
{"SMILES": "Cc1ccc(C(C)(C)C)c(Sc2c(O)cc(-c3ccc(OCc4cccnc4)cc3)oc2=O)c1", "setting": "pH 4.7", "value": "0.024 µM"}
{"SMILES": "COc1cc(O)c(C(=O)[C@@H]2[C@H](CC=C(C)C)C(C)=CC[C@H]2c2ccccc2)c(O)c1", "value": "18.7 µM"}
{"SMILES": "Cc1cc(-c2cc(O)c(Sc3ccccc3C(C)C)c(=O)o2)ccc1OCc1cccnc1", "setting": "pH 4.7", "value": "0.087 µM"}
{"SMILES": "CC1(C)CC[C@]2(C(=O)O)CC[C@]3(C)C(=CCC4[C@@]5(C)CC[C@H](OC(=O)CC(=O)O)C(C)(C)C5CC[C@]43C)C2C1", "value": "8 µM"}
{"SMILES": "C=C(C)[C@H]1CC[C@]2(C)[C@H]3CC[C@@H]4[C@@]5(C)C[C@H](O)C[C@](C)(C(=O)O)[C@@H]5CC[C@@]4(C)[C@]3(C)CC[C@@H]12", "value": "26.5 µM"}

Again, the opening 6 rows:

SMILES,setting,changes,value
COC(=O)[C@]12CCC(C)(C)CC1C1=CCC3[C@@]4(C)CC/C(=N\OC(=O)CCCCC(=O)O)C(C)(C)C4CC[C@@]3(C)[C@]1(C)CC2,-,-,4 µM
CC1(C)CC[C@]2(C(=O)O)CC[C@]3(C)C(=CCC4[C@@]5(C)CC[C@H](OC(=O)C(=O)O)C(C)(C)C5CC[C@]43C)C2C1,-,-,20 µM
CC(C)C[C@H](NC(=O)[C@@H](NC(=O)CCCCCCCCCCCCCCC(=O)N[C@@H](CC(N)=O)C(=O)N[C@@H](Cc1cccc2ccccc12)C(=O)O)C(C)O)C(=O)N[C@@H](Cc1ccc(-c2ccccc2)cc1)C(N)=O,-,-,0.51 µM
COC(=O)[C@]12CCC(C)(C)CC1C1=CCC3[C@@]4(C)CC/C(=N\OC(=O)CCCCC(=O)O)C(C)(C)C4CC[C@@]3(C)[C@]1(C)CC2,-,-,4 µM
CCCC[C@H](NC(=O)[C@H](C)NC(=O)[C@H](CCC(=O)O)NC[C@H](Cc1ccccc1)NC(=O)[C@H](CC(C)C)NC(=O)[C@@H](NC(=O)[C@@H](N)CCCN=C(N)N)C(C)C)C(N)=O,-,PR-D30N,>0.075 µM
O=c1oc(-c2ccc(OCc3ccccn3)cc2)cc(O)c1SCCc1ccccc1,pH 4.7,-,1.5 µM